For one data set, the system named is Trypanosoma brucei. Description: Antiparasitic activity against Trypanosoma brucei BSF after 3 days by Alamar blue assay. In general terms: Alamar Blue is a resazurin reagent that responds to reducing activity.
Data set [1] can be described thus: Therapeutic index, ratio of IC50 against human THP1 cells to IC50 against Trypanosoma brucei. In kind it is cell-based. To be noted: thp-1.

These results are taken from ChEMBL document CHEMBL1255389, “Exploiting the drug-activating properties of a novel trypanosomal nitroreductase” (Antimicrob Agents Chemother, 2010).

Molecules are shown by their SMILES.

With `O=C(OCc1ccc([N+](=O)[O-])cc1)N(CCCl)CCCl`, the IC50 in the data set with Trypanosoma brucei was 1800 nM. The Ratio IC50 in data set [1] was 36.

In general, IC50 refers to the concentration that inhibits the measured activity by half. Read a low IC50 as inhibition by little substance.
